Values of other authors as cited in article PMC11768359, “2-Aminothiophene Derivatives—New Drug Candidates Against Leishmaniasis: Drug Design, Synthesis, Pharmacomodulation, and Antileishmanial Activity” (Pharmaceuticals, 2025).
Which two values form the index is not stated here.

test system: promastigotes of L. amazonensis; conditions: cited from earlier work

| Compound | selectivity index (SI) |
| --- | --- |
| CC(C)(C)OC(=O)N1CCc2c(sc(N)c2C(N)=O)C1 [Compound 19] | 52 |
| Meglumine antimoniate [reference compound] | 1.01 |
| N#Cc1c(/N=C/c2c[nH]c3cccc(Br)c23)sc2c1CCCCCC2 [Compound 42, reference compound] | 75 |
